Experimental data taken from patent US20210024903A1, “Compositions and methods relating to a mutant clostridium difficile toxin” (Pfizer, published 2021).

B1: B8-26 mAb (antibody, V domains shown)
VH: QVQLQQPGAELVKPGAPVKLSCKASGYSFTSYWMNWVKQRPGRGLEWIGRIDPSNSEIYYNQKFKDKATLTVDKSSSTAYIQLSSLTSEDSAVYYCASGHYGSIFAYWGQGTTLTVSS
VL: VQITQSPSYLAASPGETITINCRASKSISKYLAWYQEKPGKTNKLLLYSGSTLQSGIPSRFSGSRSGTDFTLIISSLEPEDSAMYYCQQHNEYPLTFGAGTKLELKR
B2: B8-26 (antibody, V domains shown)
VH: B1 VH
VL: B1 VL

Assays:
[1] = molecular target: triple mutant toxin B (SEQ ID NO: 6), genetic, not chemically treated (C. difficile strain 630)
[2] = molecular target: Control, recombinant triple mutant toxin B (SEQ ID NO: 6) (Clostridium difficile 630)

Binder | binding result [1] | binding result [2]
B1 | binds | 
B2 |  | binds
